This assay has as its system GES-1 cells. Description: MTT cytotoxicity assay, normal GES-1. The conditions noted are these: read-out: IC50 GES-1, 48 h treatment, normal gastric epithelial cells, average ± SD of three independent experiments. It is filed as cell-based, human. (Formazan colour is commonly taken as a measure of viable cells.)

As usually defined, the IC50 is the concentration that gives 50% inhibition. Regarding `O=C(O)c1ccc(N(CCCl)CCCl)cc1`, the IC50 is above 100 µM.

These data come from PMC9176691, “Design, synthesis and biological evaluation of novel diosgenin–benzoic acid mustard hybrids with potential anti-proliferative activities in human hepatoma HepG2 cells” (Journal of Enzyme Inhibition and Medicinal Chemistry, 2022).
